In the supplement of paper PMC12637763:
This is one part of the list. Env chains of viruses from a treatment-interruption trial, translated from the printed DNA. IC50 / IC80 of two broadly neutralizing antibodies; lower = more sensitive virus; >50 µg/ml means not reached and <0.001 µg/ml is below the lowest dose. No active / inactive call.

Key:
antibody 10-1074 [1] = assay: neutralization IC50; higher = virus less sensitive to the antibody
Method: (§1)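 Pseudovirus bearing the Env chain mixed with antibody, from 50 µg/ml in fivefold dilutions, on TZM-bl reporter cells, in duplicate.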

antibody 3BNC117 [2] = assay: as above
Method: as §1

antibody 10-1074 [3] = assay: neutralization IC80; higher = virus less sensitive to the antibody
Method: as §1

antibody 3BNC117 [4] = assay: as above
Method: as §1

| Binder | neutralization IC50 (antibody 10-1074 [1]) [µg/mL] | neutralization IC50 (antibody 3BNC117 [2]) [µg/mL] | neutralization IC80 (antibody 10-1074 [3]) [µg/mL] | neutralization IC80 (antibody 3BNC117 [4]) [µg/mL] |
| --- | --- | --- | --- | --- |
| HIV-1 Env, reservoir clone (protein) MKAKETMKNYQHLWRWGIMLLGMLMICSAASQLWVTVYYGVPVWKEATTTLFCASDAKAYDTEVHNVWATHACVPTDPNPQEVVLGNVTEDFNMWKNNMVEQMHEDIISLWDQSLKPCVKITPLCVTLNCTEYSNATSTEWGQMEKGEIKNCSFNVTTNIKNKMQEEYALFYKVDVVPIGNNSTNYRLIKCNTSAITQACPKVSFQPIPIHYCAPAGFAILKCNNKTFNGLGPCTNVSTVQCTHGIRPVVSTQLLLNGSLAEEEIVIRSENFSDNAKNIIVHLNTSIEINCARPNNNTRKSITIGPGRAFYATGSVIGNIRQAHCNISGEKWNKALKQIAIKLREQFGHNKTIIFNQSSGGDPEIVTHSFNCGGEFFYCNSTKLFNSTWHSNDTRNNTTESNETIIIPCKIKQIINLWQEVGKAIYAPPISGPIRCSSNITGLLLTRDGGNNISQTNETFRPGGGDMRDNWRSELYKYKVVKIEPLGVAPTKAKRRVVQRERRAVGTFGALFLGFLGTAGSTMGAASITLTVQARQLLSGIVQQQNNLLKAIEAQQHLLQLTVWGIKQLQARVLAVERYLKDQQLLGLWGCSGKLICTTTVPWNASWSNKSLEQIWENMTWMQWEKEIDNYTGIIYSLISESQLQQEKNEKELLELDKWASLWTWFDITNWLWYIKIFIMIVGGLIGLRIVFAVLSIVNKVRKGYSPLSFQTRLPTPRGPDRPEGIEGEGGERGRDTSIRLVDGFLALIWDDLRNLCLFSYHHLRDLILIVVRTVELLGRRGWELLKYWWSLLKYWSQELKKSAVSLFNAAAIAVAEGTDRVIEVVQRAGRGILHVPRRIRQGLERDLQ | 0.001 | 0.027 | 0.003 | 0.138 |
| HIV-1 Env, reservoir clone (protein) MKAKETMKNYQHLWRWGIMLLGMLMICSAASQLWVTVYYGVPVWKEATTTLFCASDAKAYDTEVHNVWATHACVPTDPNPQEVVLGNVTEDFNMWKNNMVEQMHEDIISLWDQSLKPCVKITPLCVTLNCTEYSNATSTEWGQMEKGEIKNCSFNVTTNIKNKMQEEYALFYKVDVVPIGNNSTNYRLIKCNTSAITQACPKVSFQPIPIHYCAPAGFAILKCNNKTFNGLGPCTNVSTVQCTHGIRPVVSTQLLLNGSLAEEEIVIRSENFSDNAKNIIVHLNTSIEINCARPNNNTRKSITIGPGRAFYATGSVIGNIRQAHCNISGEKWNKALKQIAIKLREQFGHNKTIIFNQSSGGDPEIVTHSFNCGGEFFYCNSTKLFNSTWHSNDTRNNTTESNETIIIPCKIKQIINLWQEVGKAIYAPPISGPIRCSSNITGLLLTRDGGNNISQTNETFRPGGGDMRDNWRSELYKYKVVKIEPLGVAPTKAKRRVVQRERRAVGTFGALFLGFLGTAGSTMGAASITLTVQARQLLSGIVQQQNNLLKAIEAQQHLLQLTVWGIKQLQARVLAVERYLKDQQLLGLWGCSGKLICTTTVPWNASWSNKSLEQIWENMTWMQWEKEIDNYTGIIYSLISESQLQQEKNEKELLELDKWASLWTWFDITNWLWYIKIFIMIVGGLIGLRIVFAVLSIVNKVRKGYSPLSFQTRLPTPRGPDRPEGIEGEGGERGRDTSIRLVDGFLALIWDDLRNLCLFSYHHLRDLILIVVRTVELLGRRGWELLKYWWSLLKYWSQELKKSAVSLFNAAAIAVAEGTDRVIEVVQRAGRGILHVPRRIRQGLERALQ | < 0.001 | 0.034 | 0.006 | 0.182 |
| HIV-1 Env, reservoir clone (protein) MRVRGMPRSWRHLEKWGLLFLGLLIFCSAKENLWVTVYYGVPVWKEATTTLFCASDAKGYDKEAHNVWATHACVPTDPSPQEIFLENVTENFNMWRNDMVEQMQTDIISLWDESLKPCVKITPLCVTLNCTANITHANVSIPEMRNCSFNTTTEVRDKKQKAYALFYKLDLIQLNESKDSTEYRLINCNASTIRQACPKVSWDPIPIHYCAPAGYAILKCRDKKFNGTGPCKNVSTVQCTHGIKPVVSTQLLLNGSLAEEDIVIRSENISDNTKTIIVSLNEYVQINCTRPSNNTRKGIHVGPGQTLYATGEIIGNIRRAHCNISSTQWNKTLVQVSTKLKSLLNLTEVIFKPPAGGDLEVTMHSFNCRGEFFYCNTSKLFNNTGVLDDSYNETITLPCKIKQIINMWQEVGQAMYAPPIAGNITCNSNITGLLLTRDGGNNTKDNDTFRPGGGDMRNNWRSELYKYKVVEIEPLGVAPTRAKRQVVRRERRAGIGALFLGFLGAAGSTMGAASITLTVQARQLLSGIVQQQSNLLKAIEAQQHLLKLTVWGIKQLQARVLAVERYLKDQQLLGIWGCSGKLICTTNVPWNSSWSNKSYNEIWDNMTWIDWEREISNYSQEIYRLIEQSQNQQEKNEQELLALDKWASLWNWFDITNWLWYIRIFIIIVGGLIGLRIVFAVLTIVNRVRKGYSPLSLQTLIPSPREPDRPEGTEEGGGEQDRDRSVRLVTGFLALVWDDLRNLCLFSYRHLRNFISIAARIVDRGLRRGWETLKYLWNLIKYWGQELKNSAISLFNSTAIVVAEGTDRIIETLQIVIRAVLHIPRRIRQGFERALL | 0.003 | 46.2 | 0.013 | > 50 |
| HIV-1 Env, reservoir clone (protein) MRVMGIRKNWQGLWKWGMMLLGMLMICNATEQLWVTVYYGVPVWKEATTTLFCASDAKSYKTEAHNIWATHACVPTDPNPQEINLINVTENFNMWKNDMVEQMHEDIISLWDQSLKPCVKLTPLCVTLQCTNITITINGTDRNLTAEEREEIRNCSYNVTTELKDKKEQIYSLFYRLDITPINENQGKKSRNTITKYRLINCNTSVITQACPKINFDPIPIHYCAPAGFAILKCKDKGFNGTGPCKNVSSVQCTHGIKPVVSTQLLLNGSLAEEEIVIRSENITNNAKNIIVQLVTPVNISCVRPNNNTRKSIRIGPGQSFYANNAIIGDIRQAHCNVSRSEWNNTLQKVVKKLGGLLNKTTIDFKPPSGGDPEIIMHTFNCAGEFFYCNTSGLFNSTWNTTTWNNNSTQVSNGTDSNITLQCRIKQIINMWQGVGKAMYAPPIEGMITCISNITGLILTRDGGARNDSQNETLRPAGGDMRDNWRSELYKYKVVRLEPLGLAPTKARRRVVEREKRAIGLGALFLGFLGAAGSTMGAASLTLTVQARQLLSGIVQQQNNLLRAIEAQQHLLQLTVWGIKQLQARVLAVENYLKDQQLLGIWGCSGKHICTTNVPWNTSWSNKSLSQIWDNMTWNDWEREINNYTGLIYSLIEESQIQQDKNEKELLELDKWASLWNWFKITKWLWYIKIFIMIVGGLIGLRIIFAVLSVVNRVRQGYSPLSFQTLFPASRGPDRPEGIEEEGGEQGRGRSIRLVNGFSALIWDDLRNLILFLYHRLRDLILIATRTVEILGHRGWEAIKYLWNLLLYWIQELKNSAISLYDTLAITVAGWTDRIIEVGQRIGRAVFHIPRRIRQGAERALI | 0.024 | 0.133 | 0.063 | 0.356 |
| HIV-1 Env, reservoir clone (protein) MRVMGIRKNWQGLWKWGMMLLGMLMICNATEQLWVTVYYGVPVWKEATTTLFCASDAKSYKTEAHNIWATHACVPTDPNPQEINLINVTENFNMWENDMVEQMHEDIISLWDQSLKPCVKLTPLCVTLQCTNITITINGTDRNLTAEEREEIRNCSYNVTTELKDKKEQIYSLFYRLDITPINENQGKESRNTITKYRLINCNTSVITQACPKINFDPIPIHYCAPAGFAILKCKDKGFNGTGPCKNVSSVQCTHGIKPVVSTQLLLNGSLAEEEIVIRSENITNNAKNIIVQLVTPVNISCVRPNNNTRKSIRIGPGQSFYANNAIIGDIRQAHCNVSRSEWNNTLQKVVKKLGGLLNKTTIDFKPPSGGDPEIIMHTFNCAGEFFYCNTSGLFNSTWKKFNSTWNTTTWNNNSTQVSNGTDSNITLQCRIKQIINMWQGVGKAMYAPPIEGMITCISNITGLILTRDGGARNDSQNETLRPAGGDMRDNWRSELYKYKVVRLEPLGLAPTKARRRVVEREKRAIGLGALFLGFLGAAGSTMGAASLTLTVQARQLLSGIVQQQNNLLRAIEAQQHLLQLTVWGIKQLQARVLAVENYLKDQQLLGIWGCSGKHICTTNVPWNTSWSNKSLSQIWDNMTWNDWEREINNYTGLIYSLIEESQIQQDKNEKELLELDKWASLWNWFKITKWLWYIKIFIMIVGGLIGLRIIFAVLSVVNRVRQGYSPLSFQTLLPASRGPDRPEGIEEEGGEQGRGRSIRLVNGFSALIWDDLRNLILFLYHRLRDLILIATRTVEILGHRGWEAIKYLWNLLLYWIQELKNSAISLYDTLAIAVAGWTDRIIEVGQRIGRTVLHIPRRIRQGAERALI | 0.052 | 0.384 | 0.192 | 1.04 |
| HIV-1 Env, reservoir clone (protein) MRVMGIRKNWQGLWKWGMMLLGMLMICNATEQLWVTVYYGVPVWKEATTTLFCASDAKSYKTEAHNIWATHACVPTDPNPQEINLINVTENFNMWKNDMVEQMHEDIISLWDQSLKPCVKLTPLCVTLQCTNITITINGTDRNLTAEEREEIRNCSYNVTTELKDKKEQIYSLFYRLDITPINENQDKESRNTITKYRLINCNTSVITQACPKINFDPIPIHYCAPAGFAILKCKDKGFNGTGPCKNVSSVQCTHGIKPVVSTQLLLNGSLAEEEIVIRSENITNNAKNIIVQLVTPVNISCVRPNNNTRKSIRIGPGQSFYANNAIIGDIRQAHCNVSRSEWNNTLQKVVKKLGGLLNKTIIDFKPPSGGDPEIIMHTFNCAGEFFYCNTSGLFNSTWKKFNSTWNTTTWNNNSTQVSNGTDSNITLQCRIKQIINMWQGVGKAMYAPPIEGMITCISNITGLILTRDGARNDSQNETLRPAGGDMRDNWRSELYKYKVVRLEPLGLAPTKARRRVVEREKRAIGLGALFLGFLGAAGSTMGAASLTLTVQARQLLSGIVQQQNNLLRAIEAQQHLLQLTVWGIKQLQARVLAVENYLKDQQLLGIWGCSGKHICTTNVPWNTSWSNKSLSQIWDNMTWNDWEREINNYTGLIYSLIEESQIQQDKNEKELLELDKWASLWNWFKITKWLWYIKIFIMIVGGLIGLRIIFAVLSVVNRVRQGYSPLSFQTLLPASRGPDRPEGIEEEGGEQGRGRSIRLVNGFSALIWDDLRNLILFLYHRLRDLILIATRTVEILGHRGWEAIKYLWNLLLYWIQELKNSAISLYDTLAIAVAGWTDRIIEVGQRIGRAVFHIPRRIRQGAERALI | 0.043 | 1.24 | 0.11 | 5.16 |
